This experiment relates to Mycobacterium tuberculosis H37 Rv. Briefly: Therapeutic effect on mice experimentally infected with tuberculosis (FIG. 1, groups of 20 mice). As to conditions: for 38 days from the beginning of the treatment; oral, 200 μg/mouse, once a day, six days a week.

Turning to `CCOc1c(N2CCN(CC(C)C)CC2)ccc2nc3c4c5c6c(C)c(O)c4c(=O)c(c-3oc12)NC(=O)C(C)=CC=CC(C)C(O)C(C)C(O)C(C)C(OC(C)=O)C(C)C(OC)C=COC(C)(O6)C5=O` (stereo not shown) [Derivative No. 8], the dead mice result is reported as “there was not observed any dead mouse”.

For the origin of these results see patent publication US4965261A, “Substituted benzoxazinorifamycin derivative and antibacterial agent containing the same” (Kanegafuchi Kagaku Kogyo Kabushiki Kaisha, priority 1988, dated 1990).
